This is a selection; strong and weak results do not stand in their true shares. Records with an inconclusive call do not appear. Activity calls are given as the source filed them. Calls follow the shape of the dose curve; as a rule, active = well fitted inhibition curve with a large enough effect; inconclusive = small, poorly fitted or top-dose-only effect, or another doubt; inactive = no such curve, though single readings can be large or run the other way.
Potency is read from the fitted curve at half-maximal effect.

A short description of the test: Primary qHTS for delayed death inhibitors of the malarial parasite plastid, 48 hour incubation. To be noted: P. falciparum luciferase growth in erythrocytes. An excerpt:
The goal of this screen is to discover new antimalarial compounds that act by inhibiting the development of the apicoplast in the malarial parasite Plasmodium falciparum. The biochemical processes that make this organelle essential for erythrocytic stage parasites are not well understood. However, antibiotics such as azithromycin and tetracycline, which target the apicoplast translational machinery, have a potent antimalarial effect.
We have developed a cell-based assay that measures parasite growth based on the expression of an integrated copy of a firefly luciferase reporter. To detect small molecules that cause this "delayed death" phenotype, erythrocytes infected with the luciferase-expressing parasites were incubated with compounds for either one or two generations, corresponding to 48 and 96 hours, respectively. Compounds that inhibit parasite growth in the second generation, but not the first, should be enriched in antimalarials that target the apicoplast. Growth inhibition is detected by a decrease in luciferase activity.
Assay Provider: David Fidock and Eric Ekland, Columbia University
Keywords: NIH Roadmap, MLPCN, MLI, MLSMR, qHTS, NCGC, qHTS, malaria, luciferase, viability
Four microliters of culture medium (RPMI 1640 with 0.5% w/v Albumax (GIBCO), 24 mM sodium bicarbonate and 10 ug/mL gentamycin) were dispensed by a Multi-drop Combi into white solid 1536-well plates (Grenier) and 23 nL compound was added by a pin tool. Four microliters of infected erythrocytes (2% hematocrit, 0.1% parasitemia final concentration) in culture medium were dispensed and the plates incubated for 48 hours at 37 C in 5% CO2. Two microliters of luciferase detection reagent was added and luminescence was detected by a ViewLux (PerkinElmer) reader.
Regarding `CN(C)c1cccc(C(=O)NCC2(N3CCCCC3)CCCCC2)c1`, the Potency was active: 3.7 µM.

In the case of `CCCCOc1ccc(C(=O)NCC2(N3CCOCC3)CCCCC2)cc1`, the Potency is active: 13.1 µM.

For `O=C(NCC1(N2CCCCC2)CCCCC1)c1ccc(Cl)s1`, the Potency was active: 10.4 µM.

Regarding `COc1cccc(C(=O)N(c2cc(C)cc(C)c2)C2CCN(C(=O)OC(C)(C)C)CC2)c1`, the Potency is active: 10.4 µM.

`CC(C)(C)OC(=O)N1CCC(N(C(=O)c2ccccc2)c2ccc(Cl)cc2)CC1`: the Potency is active: 11.7 µM.

The record behind these values is PubChem BioAssay AID504832 (National Center for Advancing Translational Sciences (NCATS), 2011).
